Source: PubChem BioAssay AID624099 (ICCB-Longwood, 2012)
The deposit covers about 21,000 reagents; below is a part drawn at random. Over the whole deposit, 497 (2.4%) got an active call. 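Higher z means weaker E2 silencing; only reporter increases were scored, and knock-downs that hurt cell survival may mask genuine repressor factors.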 No sequences are given here.

Test: 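Host factors E2 relies on to silence an HPV18 LCR reporter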 (primary screen)
Cells: human C33A cervical carcinoma cells (HPV-negative) stably expressing BPV1 E2 and an HPV18 LCR luciferase reporter
Reagents: siRNA pool against human genes, 40 nM
Time to read-out: 72 h
Measurement: 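Per-well luciferase luminescence, z-scored on each plate against the plate mean and SD with control wells left out, then averaged across three replicate plates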
Scale: mean z-score and z-score: higher = stronger reporter signal, weaker E2 silencing
Rule for the call: 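Hit if mean z-score reaches 2 and two or more of three replicate z-scores also reach 2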

Gene | mean z-score | z-score, replicate A | z-score, replicate B | z-score, replicate C | outcome
TRPV4 (GeneID 59341) | 1.89 | 1.69 | 2.24 | 1.74 | inactive
ACSBG1 (GeneID 23205) | 1.15 | 0.88 | 2.11 | 0.46 | inactive
CFH (GeneID 3075) | -1.9 | -1.64 | -2.04 | -2.03 | inactive
SIDT2 (GeneID 51092) | -0.46 | -0.63 | 0.07 | -0.82 | inactive
NDUFAF2P1 (GeneID 727919) | -0.73 | -0.84 | -0.88 | -0.47 | inactive
GNS (GeneID 2799) | 0.09 | -0.02 | -0.13 | 0.42 | inactive
PDE4C (GeneID 5143) | -0.2 | -0.63 | -0.48 | 0.53 | inactive
OR6F1 (GeneID 343169) | 0.24 | 0.41 | 0.09 | 0.22 | inactive
RTBDN (GeneID 83546) | 0.17 | 0.05 | 0.18 | 0.28 | inactive
SAYSD1 (GeneID 55776) | -1.5 | -1.44 | -1.68 | -1.39 | inactive
BCL6B (GeneID 255877) | -0.82 | -0.5 | -0.82 | -1.14 | inactive
MYOM3 (GeneID 127294) | 1.23 | 1.31 | 1.49 | 0.89 | inactive
MRPL27 (GeneID 51264) | -0.64 | -0.45 | -0.99 | -0.5 | inactive
GOLGA4 (GeneID 2803) | 0.24 | 0.32 | 0.02 | 0.38 | inactive
PCDHB6 (GeneID 56130) | -0.34 | -0.18 | -0.42 | -0.41 | inactive
FAM156A (GeneID 29057) | 0.2 | 0.17 | 0.31 | 0.12 | inactive
NOD2 (GeneID 64127) | 0.38 | 0.24 | 0.4 | 0.5 | inactive
E2F6P4 (GeneID 139542) | -0.49 | -0.62 | -0.08 | -0.78 | inactive
AKAP19 (GeneID 84281) | 1.34 | 1.5 | 1.16 | 1.37 | inactive
CEP350 (GeneID 9857) | -0.12 | -0.02 | -0.02 | -0.34 | inactive
METTL21A (GeneID 151194) | 0.28 | -0.01 | 0.44 | 0.41 | inactive
COL9A3 (GeneID 1299) | 0.6 | 0.53 | 0.56 | 0.71 | inactive
LOC401621 (retired record) (GeneID 401621) | 0.67 | 0.35 | 0.6 | 1.05 | inactive
PRR11 (GeneID 55771) | -1.17 | -0.96 | -1.29 | -1.26 | inactive
NBPF10 (GeneID 100132406) | -0.08 | 0 | -0.15 | -0.07 | inactive
SPACA6 (GeneID 147650) | -0.28 | 0.19 | -0.63 | -0.4 | inactive
TAAR9 (GeneID 134860) | 2.29 | 1.86 | 2.22 | 2.8 | active
RAB44 (GeneID 401258) | -0.09 | -0.26 | -0.25 | 0.24 | inactive
HEYL (GeneID 26508) | -0.54 | -0.36 | -0.85 | -0.4 | inactive
MARS1 (GeneID 4141) | -0.39 | -0.23 | -0.72 | -0.22 | inactive
TTI2 (GeneID 80185) | -0.24 | -0.3 | -0.12 | -0.29 | inactive
LOC388467 (retired record) (GeneID 388467) | 1.42 | 1.26 | 1.59 | 1.41 | inactive
TPRX1 (GeneID 284355) | -0.24 | 0.06 | -0.36 | -0.42 | inactive
UQCC2 (GeneID 84300) | -0.37 | -0.25 | -0.57 | -0.29 | inactive
SAV1 (GeneID 60485) | 0.7 | 0.57 | 0.74 | 0.8 | inactive
CD37 (GeneID 951) | 1.04 | 1.06 | 1.1 | 0.96 | inactive
TLK2 (GeneID 11011) | 1.02 | 1.14 | 0.92 | 0.99 | inactive
BAIAP2L1 (GeneID 55971) | -0.5 | -0.33 | -0.8 | -0.36 | inactive
LOC285188 (retired record) (GeneID 285188) | -0.69 | -0.88 | -0.23 | -0.96 | inactive
DEDD2 (GeneID 162989) | -0.38 | -0.13 | -0.53 | -0.48 | inactive
KCTD4 (GeneID 386618) | 2.07 | 1.91 | 2.05 | 2.27 | active
PTTG1 (GeneID 9232) | 0.37 | 0.16 | 0.16 | 0.79 | inactive
CGA (GeneID 1081) | -0.14 | -0.06 | -0.1 | -0.27 | inactive
ADAM17 (GeneID 6868) | 1.58 | 1.61 | 1.65 | 1.49 | inactive
SSTR4 (GeneID 6754) | -0.64 | -0.77 | -0.61 | -0.54 | inactive
PUM3 (GeneID 9933) | 1.77 | 1.66 | 1.72 | 1.92 | inactive
TMEM163 (GeneID 81615) | -0.15 | 0 | -0.27 | -0.19 | inactive
LINC01341 (GeneID 149134) | -0.9 | -1.73 | -0.69 | -0.29 | inactive
EEF1E1 (GeneID 9521) | 0.89 | 1.08 | 0.76 | 0.84 | inactive
PROSER2 (GeneID 254427) | 0.66 | 0.31 | 0.85 | 0.81 | inactive
GNG7 (GeneID 2788) | -0.22 | 0.11 | -0.6 | -0.16 | inactive
PLXND1 (GeneID 23129) | 0.11 | 0.36 | 0.34 | -0.36 | inactive
KCNK13 (GeneID 56659) | -0.54 | -0.4 | -0.44 | -0.79 | inactive
CSNK1A1 (GeneID 1452) | 1.31 | 1.17 | 1.35 | 1.42 | inactive
GPBP1 (GeneID 65056) | -0.45 | -0.53 | -0.66 | -0.18 | inactive
LITAF (GeneID 9516) | 0.43 | 0.34 | 0.36 | 0.61 | inactive
C16orf89 (GeneID 146556) | -0.35 | 0.13 | -0.95 | -0.24 | inactive
